Compound potency records, mixed from different reports. Data source: NIAID ChemDB in PubChem.

Common to all: whole-cell or culture tests; organism: HIV-1; measure: EC50

Blank or dashed fields: not listed here. Two numbers with a dash give a range or band. Lines come from different laboratories, so protocols vary. ECn is the concentration giving n% inhibition of infection, replication or growth.

{"compound": "[B-]P(=O)(OC[C@H]1O[C@H](n2cc(C)c(=O)[nH]c2=O)C[C@@H]1N=[N+]=[N-])OP(=O)(O)O[C@H]1O[C@H](CO)[C@@H](O)[C@H](O)[C@H]1O", "strain or isolate": "LAI", "cells": "PBMC (PHA stimulated) + PBMC", "read by": "RT activity", "value": "0.075 µM"}
{"compound": "C=CCN1C(=S)S/C(=C\\c2ccc(-c3ccccc3)o2)C1O", "strain or isolate": "YU2", "cells": "HEK 293", "read by": "PCR", "value": "0.5–1 µM"}
{"compound": "COc1oc([C@H]2C/C(=C/C(C)=C/c3ccccc3)CO2)c(C)c(=O)c1C", "strain or isolate": "LAI", "cells": "PBMC + LC5-RIC", "read by": "fluorescence", "value": "0.0015 µM"}
{"compound": "COc1cc2c(OC3O[C@H](CO)[C@H](O)[C@@H]4OC(C)(C)O[C@@H]34)c3c(c(-c4ccc5c(c4)OCO5)c2cc1OC)C(=O)OC3", "strain or isolate": "NL4-3", "cells": "293T", "read by": "luciferase", "conditions": "pseudotyped", "value": ">0.0527 µM"}
{"compound": "Cc1cc(S(N)(=O)=O)ccc1NC(=O)COc1ccc(Cl)cc1C(=O)c1cc(C#N)cc(C(F)(F)F)c1", "strain or isolate": "HXB2", "cells": "HeLa + HeLa-MAGI", "read by": "β-galactosidase", "value": "0.001 µM"}
{"compound": "COc1oc([C@H]2C/C(=C/C(C)=C/c3ccc(F)cc3F)CO2)c(C)c(=O)c1C", "strain or isolate": "LAI", "cells": "PBMC + LC5-RIC", "read by": "fluorescence", "value": "0.0143 µM"}
{"compound": "CCNc1cccnc1N1CCN(C(=O)c2cc3cc(OC)ccc3[nH]2)CC1", "strain or isolate": "BaL", "mutations": "RT-V106A", "cells": "Macrophage + Monocytes/macrophages", "read by": "p24", "value": ">25.6 µM"}
{"compound": "C#CNc1c2c(c(-c3ccc4c(c3)OCO4)c3cc(OC)c(OC)cc13)C(=O)OC2", "strain or isolate": "NL4-3", "cells": "293T", "read by": "luciferase", "conditions": "pseudotyped", "value": "0.0188 µM"}
{"compound": "Cc1cc(=O)c2ccc(N=C=S)cc2o1", "strain or isolate": "89.6", "cells": "CEM-GFP", "read by": "p24 / ELISA", "value": "0.188 µM"}
{"compound": "Cc1cn([C@H]2C[C@H](N=[N+]=[N-])[C@@H](CO)O2)c(=O)[nH]c1=O", "strain or isolate": "RR/Q184 (RT M41L D67N K70R T215Y M184V)", "mutations": "RT-M41L D67N K70R M184V T215Y", "cells": "HT4LACZ-1 + HT4 LacZ-1", "read by": "plaque count", "value": "0.07 µM"}
{"compound": "COc1cc2c(OC3O[C@H](C)[C@@H](O)[C@H](OC(=O)N(C)C)[C@H]3O)c3c(c(-c4ccc5c(c4)OCO5)c2cc1OC)C(=O)OC3", "strain or isolate": "NL4-3", "cells": "293T", "read by": "luciferase", "conditions": "pseudotyped", "value": ">0.00374 µM"}
{"compound": "Cc1cn([C@H]2C[C@H](N=[N+]=[N-])[C@@H](CO)O2)c(=O)[nH]c1=O", "strain or isolate": "A031-2", "cells": "MAGI + MAGI-CCR5", "read by": "β-galactosidase", "value": "0.0162 µM"}
{"compound": "COc1oc([C@H]2C/C(=C/C(C)=C/c3cccc(Cl)c3)CO2)c(C)c(=O)c1C", "strain or isolate": "LAI", "cells": "PBMC + LC5-RIC", "read by": "fluorescence", "value": "4.021 µM"}
{"compound": "O=c1[nH]cnc2c1ncn2[C@H]1CC[C@@H](CO)O1", "strain or isolate": "HXB2", "mutations": "RT-L74V", "cells": "CD4+HELA + HeLa", "read by": "plaque count", "value": "12 µM"}
{"compound": "COc1cc2c(OCC(C)(C)O)c3c(c(-c4ccc5c(c4)OCO5)c2cc1OC)C(=O)OC3", "strain or isolate": "NL4-3", "cells": "293T", "read by": "luciferase", "conditions": "pseudotyped", "value": "0.015 µM"}
{"compound": "COc1oc([C@H]2C/C(=C/C(C)=C/c3ccc(Cl)cc3)CO2)c(C)c(=O)c1C", "strain or isolate": "LAI", "cells": "PBMC + LC5-RIC", "read by": "fluorescence", "value": "0.0005 µM"}
{"compound": "Cc1cc(C#N)cc(C(=O)c2cc(Cl)ccc2OCC(=O)Nc2ccc(S(N)(=O)=O)cc2C)c1", "strain or isolate": "HXB2", "cells": "HeLa + HeLa-MAGI", "read by": "β-galactosidase", "value": "0.0005 µM"}
{"compound": "O=c1c2ccccc2n2nnc3ccc(NCCCN4CCN(CCCNc5ccc6nnn7c8ccccc8c(=O)c5c67)CC4)c1c32", "strain or isolate": "CLADE C", "cells": "PBL", "read by": "p24", "value": "0.0064 µM"}
{"compound": "Cc1cc(C)cc(C(=O)c2cc(Cl)ccc2OCC(=O)Nc2ccc(S(N)(=O)=O)cc2C)c1", "strain or isolate": "HXB2", "cells": "HeLa + HeLa-MAGI", "read by": "β-galactosidase", "value": "0.0004 µM"}
{"compound": "COC(=O)C(C)CNP(=O)(OC[C@@H]1CC[C@H](n2cc(C)c(=O)[nH]c2=O)O1)Oc1ccccc1", "cells": "CEM(TK-) + CEM TK-", "read by": "RT activity", "value": "7.5 µM"}
{"compound": "Cc1cc(S(N)(=O)=O)ncc1NC(=O)COc1ccc(Cl)cc1C(=O)c1cc(Cl)cc(C#N)c1", "strain or isolate": "HXB2", "cells": "HeLa + HeLa-MAGI", "read by": "β-galactosidase", "value": "0.002 µM"}
{"compound": "Cn1c2ccccc2c2c1cc(C#N)c(=O)n2-c1ccc([N+](=O)[O-])cc1", "strain or isolate": "NRTI resistant", "mutations": "RT-K65R K70R V75I F77L F116Y Q151M", "cells": "HeLa", "read by": "luciferase", "value": "0.043 µM"}
{"compound": "Cc1cn([C@H]2CC[C@@H](CO)O2)c(=O)[nH]c1=O", "cells": "CEM(TK-) + CEM TK-", "read by": "RT activity", "value": "91.2 µM"}
{"compound": "Cc1cc(S(N)(=O)=O)ccc1NC(=O)COc1ccc(Cl)cc1C(=O)c1cc(Cl)cc(C#N)c1", "strain or isolate": "NNRTI-resistant (RT L100I)", "mutations": "RT-L100I", "cells": "MAGI", "read by": "β-galactosidase", "value": "0.0005 µM"}
{"compound": "COc1oc([C@H]2C/C(=C/C(C)=C/c3ccc(NS(C)(=O)=O)cc3)CO2)c(C)c(=O)c1C", "strain or isolate": "LAI", "cells": "PBMC + LC5-RIC", "read by": "fluorescence", "value": ">10 µM"}
{"compound": "O=C1N[C@H](C(=O)O)CS1", "cells": "U1", "read by": "p24", "value": ">3000 µM"}
{"compound": "COc1oc([C@H]2C/C(=C/C(C)=C/c3ccc(Cl)cc3Cl)CO2)c(C)c(=O)c1C", "strain or isolate": "LAI", "cells": "PBMC + LC5-RIC", "read by": "fluorescence", "value": "0.0036 µM"}
{"compound": "COc1cc2c(OC3O[C@@H]4COC(C)(C)O[C@@H]4[C@H](O)[C@H]3O)c3c(c(-c4ccc5c(c4)OCO5)c2cc1OC)C(=O)OC3", "strain or isolate": "NL4-3", "cells": "293T", "read by": "luciferase", "conditions": "pseudotyped", "value": ">0.0527 µM"}
{"compound": "Cc1cc(S(N)(=O)=O)ccc1NC(=O)COc1ccc(Cl)cc1C(=O)c1cc(F)cc(C(F)(F)F)c1", "strain or isolate": "HXB2", "mutations": "RT-Y181C", "cells": "HeLa + HeLa-MAGI", "read by": "β-galactosidase", "value": "0.003 µM"}
{"compound": "COc1ccc(/C=C(C)/C=C2\\CO[C@@H](c3oc(OC)c(C)c(=O)c3C)C2)cc1OC", "strain or isolate": "LAI", "cells": "PBMC + LC5-RIC", "read by": "fluorescence", "value": "0.0487 µM"}
{"compound": "Cc1cc(N2CCS(=O)CC2)ccc1NC(=O)COc1ccc(Cl)cc1C(=O)c1cccc(C#N)c1", "strain or isolate": "HXB2", "cells": "HeLa + HeLa-MAGI", "read by": "β-galactosidase", "value": "0.004 µM"}
{"compound": "COC(=O)C(C)CNP(=O)(OC[C@@H]1CC[C@H](n2cc(C)c(=O)[nH]c2=O)O1)Oc1ccc([N+](=O)[O-])cc1", "cells": "CEM(TK-) + CEM TK-", "read by": "RT activity", "value": "22.6 µM"}
{"compound": "COc1ccc(S(=O)(=O)N(CC(C)C)C[C@@H](O)[C@H](Cc2ccccc2)NC(=O)O[C@H]2CO[C@H]3OCC[C@H]32)cc1", "strain or isolate": "IIIB", "cells": "H9(HIV-1(IIIB)) + H9", "read by": "p24", "value": "0.02 µM"}
{"compound": "COc1ccc(CN[C@@H](C(=O)N[C@H]2c3ccccc3C[C@H]2O)[C@H](O)[C@H](Cc2ccccc2)NC(=O)[C@@H](NC(=O)OCc2ccccc2)C(C)(C)C)cc1", "strain or isolate": "A018A", "cells": "Primary T4 cells + T4", "read by": "p24", "value": "0.028 µM"}
{"compound": "Cc1cn([C@H]2C[C@H](N=[N+]=[N-])[C@@H](CO)O2)c(=O)[nH]c1=O", "strain or isolate": "HXB2", "cells": "CBMC", "value": "0.007 µM"}
{"compound": "CC(C)Nc1cccnc1N1CCN(C(=O)c2cc3cc(NS(C)(=O)=O)ccc3[nH]2)CC1", "strain or isolate": "BaL", "mutations": "RT-P236L", "cells": "Macrophage + Monocytes/macrophages", "read by": "p24", "value": "7.4 µM"}
{"compound": "Cc1cn([C@H]2C=C[C@@H](CO)O2)c(=O)[nH]c1=O", "cells": "CEM(TK-) + CEM TK-", "read by": "RT activity", "value": "2.3 µM"}
{"compound": "Cc1cn([C@H]2C=C[C@@H](CO)O2)c(=O)n(N)c1=O", "strain or isolate": "BRU", "cells": "CEM-C113 + CEM/C113", "read by": "cytopathic effect / MTT", "value": ">1 µM"}

For reference, 3 entries again:

compound	strain or isolate	mutations	cells	read by	conditions	value
Cc1cc(S(N)(=O)=O)ccc1NC(=O)COc1ccc(Cl)cc1C(=O)c1cc(Cl)cc(C#N)c1	NNRTI-resistant (RT L100I)	RT-L100I	MAGI	β-galactosidase	-	0.0005 µM
COc1oc([C@H]2C/C(=C/C(C)=C/c3ccc(F)cc3F)CO2)c(C)c(=O)c1C	LAI	-	PBMC + LC5-RIC	fluorescence	-	0.0143 µM
Cc1cn([C@H]2C[C@H](N=[N+]=[N-])[C@@H](CO)O2)c(=O)[nH]c1=O	A031-2	-	MAGI + MAGI-CCR5	β-galactosidase	-	0.0162 µM